From ChEMBL document CHEMBL3988442, “University of Dundee, Small-Polar-MMV Screening Library” (2021) come the findings set out here.

Test [1] concerns Mycobacterium tuberculosis. More on the design: scale not given: direction of the effect not stated beside the values. To be noted: 500 µM.
The subject of test [2] is Mycobacterium tuberculosis. Also noted: scale not given: direction of the effect not stated beside the values. The conditions noted are these: 500 µM. This is another data set of the same source.

The structures appear in SMILES notation. The entries are a selection whose mix differs from that of the whole data set.

With `NC(CF)c1ccc(F)cc1` (configuration not stated), the figures for the Percent Effect in test [1] and in test [2] were 4.65% and 12.2%, respectively.
